This is an account of results in patent US20040147006.

By UniProt entry, the sequences of proteins in these tests, tags left out. Where a name states a change or a piece, a line headed by the entry shows the natural chain unless it says otherwise.
UniProt Q3L6L5: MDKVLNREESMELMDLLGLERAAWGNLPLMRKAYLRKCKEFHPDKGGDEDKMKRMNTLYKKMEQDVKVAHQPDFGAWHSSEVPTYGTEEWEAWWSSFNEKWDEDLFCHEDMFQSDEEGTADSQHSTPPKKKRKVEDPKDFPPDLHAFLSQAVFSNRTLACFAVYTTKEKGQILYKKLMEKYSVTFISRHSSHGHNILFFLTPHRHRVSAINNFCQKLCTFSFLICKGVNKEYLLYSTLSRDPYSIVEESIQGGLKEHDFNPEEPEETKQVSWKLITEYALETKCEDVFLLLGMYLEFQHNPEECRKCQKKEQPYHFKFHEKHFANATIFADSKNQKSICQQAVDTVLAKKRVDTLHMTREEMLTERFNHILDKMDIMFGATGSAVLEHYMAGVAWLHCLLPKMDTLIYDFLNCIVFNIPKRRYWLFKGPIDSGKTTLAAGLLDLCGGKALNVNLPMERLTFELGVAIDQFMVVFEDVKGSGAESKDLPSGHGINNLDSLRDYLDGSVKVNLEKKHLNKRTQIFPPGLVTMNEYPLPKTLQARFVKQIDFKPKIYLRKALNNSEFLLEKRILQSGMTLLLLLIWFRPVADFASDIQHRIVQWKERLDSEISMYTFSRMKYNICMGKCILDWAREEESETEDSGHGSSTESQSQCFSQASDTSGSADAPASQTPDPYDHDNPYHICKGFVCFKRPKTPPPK

Series [1] has as its target T-ag peptide T-2(13), unphosphorylated (Simian virus 40) (UniProt Q3L6L5). In words: filter binding. The settings on record: saturation at 2 mM, relatively poor at 0.5 mM; pBR322 competitor, 37 C; also EMSA at 1 mM; synthetic protein; protein details: synthetic peptide; label: 5'-32P.
The target is the same in series [2]. In words: EMSA. The settings on record: 1 mM peptide; not highly sequence specific; synthetic protein; protein details: synthetic peptide; label: 5'-32P. (In general: Mobility shift assays separate free from complexed probe on a gel.)

As for “TAATTTTTTTTATTTATGCAGAGGCCGAGGCCGCCTCGGCCTCTGAGCTATTCCAGAAGTAGTG (double strand) [64-bp SV40 core origin]”, the binding result in series [1] was “binds”.

Regarding “GAGATGCATGCTTTGCATACTTCTGCCTGCTGGGGAGGGAATTCTTGAAGACGAAAGGGCCTCG (double strand) [64-bp enhancer control]”, the binding result in series [2] was “binds”.
